Test results: patent publication US9463216B2 (priority 2012, dated 2016)

Chains of the proteins cited; added tags and fusions are not shown. Residues count along the entry.
UniProt P13423, 30-764 limits assumed: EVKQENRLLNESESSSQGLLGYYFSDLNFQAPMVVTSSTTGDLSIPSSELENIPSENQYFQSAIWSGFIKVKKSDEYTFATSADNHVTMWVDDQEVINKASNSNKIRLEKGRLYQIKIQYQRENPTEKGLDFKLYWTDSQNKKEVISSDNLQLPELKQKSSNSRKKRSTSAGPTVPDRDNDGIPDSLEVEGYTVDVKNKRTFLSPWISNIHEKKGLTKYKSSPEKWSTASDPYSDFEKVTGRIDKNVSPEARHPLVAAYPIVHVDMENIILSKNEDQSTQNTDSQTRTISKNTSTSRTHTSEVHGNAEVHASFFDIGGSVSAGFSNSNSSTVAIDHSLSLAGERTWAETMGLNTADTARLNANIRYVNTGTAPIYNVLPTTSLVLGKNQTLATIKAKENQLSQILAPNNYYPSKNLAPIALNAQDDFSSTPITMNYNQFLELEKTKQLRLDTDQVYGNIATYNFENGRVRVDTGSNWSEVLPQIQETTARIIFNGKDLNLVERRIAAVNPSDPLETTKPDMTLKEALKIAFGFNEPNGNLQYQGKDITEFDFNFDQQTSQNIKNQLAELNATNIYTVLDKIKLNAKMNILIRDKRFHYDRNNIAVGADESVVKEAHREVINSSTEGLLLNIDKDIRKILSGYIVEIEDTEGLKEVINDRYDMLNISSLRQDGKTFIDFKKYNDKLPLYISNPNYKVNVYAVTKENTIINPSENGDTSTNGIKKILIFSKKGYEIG
UniProt Q51693, 27-528 limits assumed: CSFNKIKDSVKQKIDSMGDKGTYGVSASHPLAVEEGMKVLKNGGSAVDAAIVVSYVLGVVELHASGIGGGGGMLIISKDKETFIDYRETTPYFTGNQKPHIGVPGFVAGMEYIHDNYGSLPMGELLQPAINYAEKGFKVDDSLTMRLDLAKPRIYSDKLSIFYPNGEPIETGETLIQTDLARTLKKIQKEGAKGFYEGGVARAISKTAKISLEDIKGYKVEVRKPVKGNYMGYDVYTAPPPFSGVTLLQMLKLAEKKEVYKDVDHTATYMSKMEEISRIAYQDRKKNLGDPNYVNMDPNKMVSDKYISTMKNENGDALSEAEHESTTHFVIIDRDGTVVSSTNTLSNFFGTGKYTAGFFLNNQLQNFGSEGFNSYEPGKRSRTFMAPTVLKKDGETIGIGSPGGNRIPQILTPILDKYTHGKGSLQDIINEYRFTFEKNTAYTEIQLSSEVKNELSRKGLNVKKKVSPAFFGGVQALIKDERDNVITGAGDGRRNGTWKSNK

What was measured:
lethal toxin (PA + LF) = lethal toxin (PA + LF) (Bacillus anthracis, UniProt P13423); details: for IC50: read-out: Half-maximal inhibitory values
CapD = CapD (Bacillus anthracis, UniProt Q51693)

γ-DLPGA [Compound 1] was tested, and the “inhibitory activity (LT-mediated cytotoxicity) after cleavage by Cap D” value (lethal toxin (PA + LF)) was “not” and the IC50 (lethal toxin (PA + LF)) was 0.68 ± 0.07 µM.
γ-DPGA [Compound 2] was tested, and the “digestion / cleavage by CapD” value (CapD) was “susceptible to enzymatic cleavage”, the “inhibitory activity (LT-mediated cytotoxicity) after cleavage by Cap D” value (lethal toxin (PA + LF)) was “abolishes inhibitory activity” and the IC50 (lethal toxin (PA + LF)) was 12 ± 1 µM.
